Test system: BALB/c mice
Assay: ELISA for anti-peptide antibody response after immunization
Conditions: high molecular weight forms

With “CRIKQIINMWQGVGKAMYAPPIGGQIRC [Peptide 67]” the “anti-peptide antibody titers (in words)” value was “high antibody titers”.

Reference: patent EP0671947B1, “COMPOSITIONS FOR ELICITING CYTOTOXIC T-[…] AGAINST VIRUSES” (BOARD OF REGENTS THE UNIVERSITY OF TEXAS SYSTEM, priority 1991, dated 1993)
